The numbers were not newly measured in US11192850B2, “N-aryl oxamic acids” (Purdue Research Foundation, priority 2020, dated 2021), which cites them from elsewhere.

By UniProt entry, the sequences of proteins in these tests, tags left out. Where a name states a change or a piece, a line headed by the entry shows the natural chain unless it says otherwise.
UniProt I6WXK4: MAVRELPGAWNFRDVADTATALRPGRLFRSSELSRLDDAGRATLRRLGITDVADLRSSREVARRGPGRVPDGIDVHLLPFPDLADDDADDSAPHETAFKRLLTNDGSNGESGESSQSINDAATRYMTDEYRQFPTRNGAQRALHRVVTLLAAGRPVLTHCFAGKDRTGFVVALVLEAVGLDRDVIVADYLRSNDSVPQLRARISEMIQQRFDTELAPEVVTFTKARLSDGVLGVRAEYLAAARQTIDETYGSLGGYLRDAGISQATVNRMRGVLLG

In this data set the target is mPTPB (Mycobacterium tuberculosis (strain ATCC 25618 / H37Rv), UniProt I6WXK4). The following applies: reported by other authors; cited from earlier work.

For “(oxalylamino methylene)-thiophene sulfonamide [Compound VI]”, the “selectivity for mPTPB over six human PTPs” value was “over 60 fold”.
